Results of unrelated studies side by side (data: NIAID ChemDB).

Common to all: growth or infection tests; agent: Human cytomegalovirus; endpoint: EC50

An empty or dashed field is not shown. Two numbers with a dash give a range or band. Neighbouring rows are from separate reports. ECn is the concentration giving n% inhibition of infection, replication or growth.

O=C1NC(=O)[C@H](c2c[nH]c3ccccc23)[C@H]1c1c[nH]c2ccccc12 ; read by: plaque count ; cell line: VERO ; result: >10 µM
Nc1ccn([C@@H]2C[C@@H](O)[C@H](CO)O2)c(=O)n1 ; cell line: HFF ; result: >100 µM
N#Cc1c(N)n(COCCO)c2ncnc(N)c12 ; read by: plaque count ; cell line: HFF ; result: 32 µM
COC(=O)CN(CC(=O)OC)P(=O)(OC[C@H]1O[C@@H](n2cc(/C=C/Br)c(=O)[nH]c2=O)C[C@@H]1O)Oc1ccccc1 ; strain: AD169 ; cell line: HEL ; result: >100 µM
N#Cc1c(Br)n(COCCO)c2ncnc(N)c12 ; read by: plaque count ; cell line: HFF ; result: >100 µM
O=c1[nH]cnc2c1ncn2CC(CO)OCP(=O)(O)O ; strain: 2 strains ; read by: plaque count ; cell line: HEL ; result: 100 µg/mL
O=C1NC(=O)c2c1c1c3cc(Br)ccc3[nH]c1c1[nH]c3ccc(Br)cc3c21 ; read by: plaque count ; cell line: VERO ; result: 0.06 µM
Nc1ncnc2c1ncn2[C@@H]1C[C@H](O)[C@@H](O)[C@H]1O ; strain: DAVIS (100 PFU) ; read by: cytopathic effect ; cell line: HEL ; result: 0.7 µg/mL
Nc1ccn(C[C@@H](CO)OCP(=O)(O)O)c(=O)n1 ; strain: 2 strains ; read by: plaque count ; cell line: HEL ; result: 0.08 µg/mL
Cc1ccc(Cn2c(N)c(C#N)c3c(N)ncnc32)cc1 ; strain: TOWNE ; read by: plaque count ; cell line: HFF ; result: 0.3 µM
NC(=O)c1cn([C@H]2CC[C@@H](CO)O2)c2ncnc(N)c12 ; read by: plaque count ; cell line: HFF ; result: 133 µM
NC1=Nc2c(ncn2CCCCC(F)(F)P(=O)(O)O)C(=O)C1 ; read by: cytopathic effect ; cell line: MRC-5 ; result: >1000 µM
Nc1ncnc2c1ccn2[C@@H]1O[C@H](CO)[C@@H](O)[C@@H]1O ; read by: plaque count ; cell line: HFF ; result: 155 µM
Nc1nc2c(ncn2[C@@H]2C=C[C@H](CO)CC2)c(=O)[nH]1 ; read by: plaque count ; result: 1–10 µM
COC(=O)[C@H](C)NP(=O)(OC[C@H]1C/C1=C\n1cnc2c(N)nc(N)nc21)Oc1ccccc1 ; strain: TOWNE ; read by: plaque count ; cell line: HFF ; result: >100 µM
Nc1ncnc2c1ccn2[C@H]1C=C[C@@H](CO)O1 ; read by: plaque count ; cell line: HFF ; result: >100 µM
O=C1NC(=O)c2c1c1c([nH]c3cccc(F)c31)c1[nH]c3cccc(F)c3c21 ; read by: plaque count ; cell line: VERO ; result: >10 µM
N#Cc1cn([C@@H]2O[C@H](CO)[C@@H](O)[C@@H]2O)c2ncnc(N)c12 ; strain: TOWNE ; read by: plaque count ; cell line: HFF ; result: 1.7 µM
Nc1nc(N)c2ncn(CCOCP(=O)(O)O)c2n1 ; strain: 2 strains ; read by: plaque count ; cell line: HEL ; result: 10 µg/mL
C[C@H](N)C(=O)OCP(=O)(OC[C@H]1O[C@@H](n2cnc3c(N)ccnc32)C[C@@H]1O)Oc1ccccc1 ; strain: DAVIS ; cell line: HEL ; result: >100 µM
CC(=O)Oc1ccc([C@@H]2CC(=O)c3c(cc(OC(C)=O)c(-c4c(OC(C)=O)cc5c(c4OC(C)=O)C(=O)C[C@@H](c4ccc(OC(C)=O)cc4)O5)c3OC(C)=O)O2)cc1 ; strain: AD169 ; read by: cytopathic effect ; cell line: HFF ; result: >4 µg/mL
Nc1ncnc2c1ccn2[C@H]1C[C@H](O)[C@@H](CO)O1 ; read by: plaque count ; cell line: HFF ; result: 130 µM
CC#Cc1cn([C@@H]2O[C@H](COP(=O)(O)OCC)[C@@H](O)[C@@H]2O)c(=O)[nH]c1=O ; strain: AD169 ; read by: plaque count ; cell line: MRC-5 ; result: >100 µM
Nc1ncnc2c1ccn2COCCO ; read by: plaque count ; cell line: HFF ; result: >100 µM
Nc1nc2c(ncn2[C@H]2C=C[C@@H](CO)CC2)c(=O)[nH]1 ; strain: U 9070 ; read by: plaque count ; cell line: HEL ; result: 0.4 µg/mL
COC(=O)CN(CC(=O)OC)P(=O)(OC[C@H]1O[C@@H](n2cnc3c(N)ccnc32)C[C@@H]1O)Oc1ccccc1 ; strain: AS-169 ; cell line: HEL ; result: >100 µM
NC(=O)c1nc(F)c[nH]c1=O ; read by: plaque count ; cell line: HEL ; result: >100 µg/mL
N#Cc1cn([C@H]2C[C@H](O)[C@@H](CO)O2)c2ncnc(N)c12 ; read by: plaque count ; cell line: HFF ; result: 0.4 µM
NC(=O)c1c(Br)n([C@@H]2O[C@H](CO)[C@@H](O)[C@H]2O)c2ncnc(N)c12 ; read by: plaque count ; cell line: HFF ; result: 3 µM
C=C[C@H]1C[C@@H](n2cnc3c(N)ncnc32)[C@H](O)[C@@H]1O ; strain: DAVIS (20 PFU) ; read by: plaque count ; cell line: HEL ; result: 4 µg/mL
N#Cc1cn(COC(CO)CO)c2ncnc(N)c12 ; read by: plaque count ; cell line: HFF ; result: >320 µM
COC(=O)[C@H](C)NP(=O)(OCC1C/C1=C/n1cnc2c(N)ncnc21)Oc1ccccc1 ; strain: TOWNE ; read by: virus yield ; cell line: HFF ; result: 0.14 µM
Nc1ncnc2c1ncn2[C@@H]1C=C(CO)[C@@H](O)[C@H]1O ; strain: AD-169 (100 PFU) ; read by: cytopathic effect ; cell line: HEL ; result: 1.26 µg/mL
NC1=Nc2c(ncn2CCC(/C=C/P(=O)(O)O)CO)C(=O)C1 ; read by: cytopathic effect ; cell line: MRC-5 ; result: 39 µM
C[C@H](N)C(=O)OCP(=O)(OC[C@H]1O[C@@H](n2cc(/C=C/Br)c(=O)[nH]c2=O)C[C@@H]1O)Oc1ccccc1 ; strain: DAVIS ; cell line: HEL ; result: >20 µM
N#Cc1c(N)n(COC(CO)CO)c2ncnc(N)c12 ; read by: plaque count ; cell line: HFF ; result: >100 µM
O=C1NC(=O)c2c1c1c3cc(O)ccc3[nH]c1c1[nH]c3ccc(O)cc3c21 ; read by: plaque count ; cell line: VERO ; result: >10 µM
CC#Cc1cn([C@@H]2O[C@H](COP(=O)(O)Oc3cccc(Cl)c3)[C@@H](O)[C@@H]2O)c(=O)[nH]c1=O ; strain: AD169 ; read by: plaque count ; cell line: MRC-5 ; result: >10 µM
Nc1nc2c(ncn2C=C2CC2CO)c(=O)[nH]1 ; read by: plaque count ; result: 1–10 µM
COC(=O)[C@H](C)NP(=O)(OC[C@H]1C/C1=C/n1cnc2c(=O)[nH]c(N)nc21)Oc1ccccc1 ; strain: TOWNE ; read by: plaque count ; cell line: HFF ; result: 4.2 µM
C[C@H]1CCC/C=C/[C@@H]2C[C@H](O)C[C@H]2[C@@H](O)/C=C/C(=O)O1 ; strain: AD169 ; read by: plaque count ; cell line: HFF ; result: 0.019 µM
Nc1ncnc2c1ncn2CCOCP(=O)(O)O ; strain: 2 strains ; read by: plaque count ; cell line: HEL ; result: 25 µg/mL
Nc1ncnc2c1ncn2C[C@H](O)CO ; strain: DAVIS (20 PFU) ; read by: plaque count ; cell line: HEL ; result: >100 µg/mL
CC#Cc1cn([C@@H]2O[C@H](COP(=O)(O)OCC(F)(F)F)[C@@H](O)[C@@H]2O)c(=O)[nH]c1=O ; strain: AD169 ; read by: plaque count ; cell line: MRC-5 ; result: >100 µM
NC(=O)c1c(N)n([C@@H]2O[C@H](CO)[C@@H](O)[C@H]2O)c2ncnc(N)c12 ; read by: plaque count ; cell line: HFF ; result: 3 µM
CC#Cc1cn([C@@H]2O[C@H](COP(=O)(O)Oc3ccccc3)[C@@H](O)[C@@H]2O)c(=O)[nH]c1=O ; strain: AD169 ; read by: plaque count ; cell line: MRC-5 ; result: >100 µM
CC(C)(C)C(=O)OCOC(=O)CN(CC(=O)OCOC(=O)C(C)(C)C)P(=O)(OC[C@H]1O[C@@H](n2cnc3c(Cl)nccc32)C[C@@H]1O)Oc1ccccc1 ; strain: AD169 ; cell line: HEL ; result: >100 µM
NC(=O)c1c(Br)n(COCCO)c2ncnc(N)c12 ; read by: plaque count ; cell line: HFF ; result: >100 µM
Nc1ncnc2c1c(I)cn2COC(CO)CO ; read by: plaque count ; cell line: HFF ; result: 3.5 µM
COc1cc(O)c2c(=O)c3cccc(O)c3n(C)c2c1OC ; read by: plaque count ; cell line: HEF ; result: 1.5 µg/mL

Again, the opening 5 rows:

structure | strain | read by | cell line | result
O=C1NC(=O)[C@H](c2c[nH]c3ccccc23)[C@H]1c1c[nH]c2ccccc12 |  | plaque count | VERO | >10 µM
Nc1ccn([C@@H]2C[C@@H](O)[C@H](CO)O2)c(=O)n1 |  |  | HFF | >100 µM
N#Cc1c(N)n(COCCO)c2ncnc(N)c12 |  | plaque count | HFF | 32 µM
COC(=O)CN(CC(=O)OC)P(=O)(OC[C@H]1O[C@@H](n2cc(/C=C/Br)c(=O)[nH]c2=O)C[C@@H]1O)Oc1ccccc1 | AD169 |  | HEL | >100 µM
N#Cc1c(Br)n(COCCO)c2ncnc(N)c12 |  | plaque count | HFF | >100 µM